Publication PMC8178753
The comparison behind a weaker result is the experiment's own reference, which may not be listed here. Protein sequences can lack the tags named with them.

Target: T1, TbKKT2 central domain (562-677) (Trypanosoma brucei) (UniProt Q383M7)
T1 sequence (looked up): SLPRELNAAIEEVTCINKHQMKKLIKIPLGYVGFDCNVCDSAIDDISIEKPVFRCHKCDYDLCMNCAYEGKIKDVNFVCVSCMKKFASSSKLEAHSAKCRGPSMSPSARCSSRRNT
Test: EMSA
Settings: EMSA: 200 nM dsDNA, 0.78-30 µM protein, 30 min RT, native PAGE at 4°C; recombinant protein; residues 562-677; protein details: His6 N-terminal, TEV-cleaved

Binding result, binds more weakly:
CAATATGTAAGGTGTTTTGGTGTAAAACACGCATTCTTGCATAACATGCA (double strand) [50 mer CEN (BA3296/BA3297)]
CGCAGATCCGCGGGGCCCGTGCCGACGCGCGGGCATTGTCCGTGAGGTGA (double strand) [50 mer 74% GC (BA3300/BA3301)]
AGGTAACTAGAAGAATTGTAATATTCTAAATGTTGATCCATTTGAATCAT (double strand) [50 mer 26% GC (BA3298/BA3299)]
